Pooled drug test results. Numbers come from NIAID ChemDB, via PubChem.

Common to all: tests in culture; species: Candida albicans; measure: MIC

Lines come from different laboratories, so protocols vary. Two numbers with a dash give a range or band. Blank or dashed fields: not listed here.

compound,strain,result
O=C1C(Sc2cccc(F)c2)=C(Sc2cccc(F)c2)C(=O)c2ncccc21,ATCC 10231,12.5 µg/mL
CCC(N)C(=O)NC(CNC(=O)/C=C/C(=O)OC)C(=O)O,-,0.78 µg/mL
O=C(N=Nc1c(O)[nH]c2cccc(Cl)c12)Nc1ccc(Br)cc1,-,1.56 µg/mL
Oc1cc2ccccc2cc1-c1nnc(NCc2ccccc2)s1,ATCC 2091,125 µg/mL
O=C1C(Sc2ccc(F)cc2)=C(Sc2ccc(F)cc2)C(=O)c2ncccc21,ATCC 10231,50 µg/mL
O=C1CCCC2=C1C(c1ccc(F)cc1)N1C(=N2)SC2=C1NS(=O)NC2=O,Robin Berkho (AUCC-1720),>40 µg/mL
CCOC(=O)c1sc2cc(-c3cccnc3)oc(=O)c2c1N,SKF,>100 µg/mL
O=C(NNC(=S)Nc1ccc(F)cc1)c1cc2ccccc2cc1O,ATCC 2091,250 µg/mL
COC(=O)/C=C/C(=O)NCC(NC(=O)[C@@H](N)CCSC)C(=O)O,-,0.78 µg/mL
O=C1C(Sc2cccc(Sc3ccc4ccccc4c3)c2)=C(Sc2cccc(Sc3ccc4ccccc4c3)c2)C(=O)c2ncccc21,ATCC 10231,12.5 µg/mL
C[C@@H](n1cnc2cc(N3CCN(c4ccc(Cl)cc4)CC3)ccc2c1=O)[C@](O)(Cn1cncn1)c1ccc(F)cc1F,76 strains,≤0.03 µg/mL
COC(=O)/C=C/C(=O)NCC(N)C(=O)NCC(=O)O,-,100 µg/mL
C[C@@H]1Oc2ccccc2/C(=N/OCc2ccc(Cl)cc2Cl)[C@H]1[n+]1cnc[nH]1,ATCC 10231,>64 µg/mL
CCOC(=O)c1sc2cc(-c3cc(F)c(Cl)cc3Cl)oc(=O)c2c1N,SKF,>100 µg/mL
C[C@@H](n1cnc2cc(S(C)(=O)=O)ccc2c1=O)[C@](O)(Cn1cncn1)c1ccc(F)cc1F,406 strains,0.63 µg/mL
O=C(COc1ccccc1)N=Nc1c(O)[nH]c2cc(Cl)ccc12,-,>1.56 µg/mL
C[C@@H]1Oc2cc(Cl)ccc2/C(=N/OCc2ccc(Cl)cc2)[C@H]1n1ccnc1,ATCC 10231,0.5 µg/mL
Cc1cc(Cl)nc2c1C(=O)C=CC2=O,ATCC 10231,50 µg/mL
Cn1cc(NC(=O)c2cc(NC(=O)c3cc(NC(=O)c4nsc(NCCN5CCNCC5)c4Cl)cn3C)cn2C)cc1C(=O)NCCCCN,38247,2 µg/mL
O=C1CCCC2=C1C(c1ccc(F)cc1)N1C(c3ccccc3)=CSC1=N2,Robin Berkho (AUCC-1720),>40 µg/mL
Oc1cc2ccccc2cc1-c1n[nH]c(=S)n1C1CCCCC1,ATCC 2091,250 µg/mL
CC(=O)NC1=C(C#N)SC2=NC3=C(C(=O)CCC3)C(c3ccc(F)cc3)N21,Robin Berkho (AUCC-1720),>40 µg/mL
COC(=O)/C=C/C(=O)NCC(NC(=O)CN)C(=O)O,-,50 µg/mL
CSc1cc(-c2ccc(-c3cccnc3)cc2)c(C(=O)O)s1,SKF,>100 µg/mL
CN(C)CCCNC(=O)c1cc(NC(=O)c2cc(NC(=O)c3cc(NC(=O)c4nsc(NCCCCCCCN)c4Cl)cn3C)cn2C)cn1C,38247,64 µg/mL
CCOC(=O)c1sc(SC)cc1-c1ccccc1,SKF,>100 µg/mL
CN(Cc1cccc2ccsc12)/N=C\c1ccccc1,-,>64 µg/mL
O=C1C(Sc2ccc(Cl)cc2)=C(Sc2ccc(Cl)cc2)C(=O)c2ncccc21,ATCC 10231,6.3 µg/mL
CCCCCCCCCCCCCCCC(=O)NC1CC(O)C(O)NC(=O)C2C(O)C(CO)CN2C(=O)C(CCC(N)=O)NC(=O)C(C(O)C(O)c2ccc(O)cc2)NC(=O)C2CC(O)CN2C(=O)C(C(C)O)NC1=O,-,0.03 µg/mL
C[C@@H](n1cnc2cc(OCC(F)(F)F)ccc2c1=O)[C@](O)(Cn1cncn1)c1ccc(F)cc1F,60 strains,0.31 µg/mL
C[C@@H]1Oc2ccccc2/C(=N/OCc2ccccc2)[C@H]1n1ccnc1,ATCC 10231,1 µg/mL
Oc1cc2ccccc2cc1-c1nnc(NC2CCCCC2)s1,ATCC 2091,250 µg/mL
Cc1ccc(/C=N\N(C)Cc2cccc3ccccc23)cc1,-,>64 µg/mL
Cc1ccc(SC2=C(Sc3ccc(C)c(C)c3)C(=O)c3ncccc3C2=O)cc1C,ATCC 10231,12.5 µg/mL
Cn1cc(NC(=O)c2cc(NC(=O)c3cc(NC(=O)c4nsc(Cl)c4Cl)cn3C)cn2C)cc1C(=O)NCCC(=N)N,38247,0.5 µg/mL
CCNC(=S)NNC(=O)c1cc2ccccc2cc1O,ATCC 2091,250 µg/mL
Cc1cc(Sc2ccccc2)nc2c1C(=O)C(Sc1ccc(Sc3ccccc3)cc1)=C(Sc1ccc(Sc3ccccc3)cc1)C2=O,ATCC 10231,3.2 µg/mL
O=C1CCCC2=C1C(c1ccc(F)cc1)N=C(SCC(=O)c1ccccc1)N2,Robin Berkho (AUCC-1720),>40 µg/mL
NS(=O)(=O)c1ccc(NC(=O)N=Nc2c(O)[nH]c3cccc(Cl)c23)cc1,-,>1.56 µg/mL
C[C@@H](n1cnc2cc(C#N)ccc2c1=O)[C@](O)(Cn1cncn1)c1ccc(F)cc1F,76 strains,0.15 µg/mL
Clc1ccc(CC(c2cccs2)n2ccnc2)c(Cl)c1,-,>37 µM
C[C@@H]1Oc2ccccc2/C(=N/OCc2ccc(Cl)cc2Cl)[C@H]1n1ccnc1,ATCC 10231,16 µg/mL
Nc1c2c(nc(=S)n1Cc1ccccc1)N1C(=NC3=C(C(=O)CCC3)C1c1ccc(F)cc1)S2,Robin Berkho (AUCC-1720),>40 µg/mL
O=C(NNC(=S)NC1CCCCC1)c1cc2ccccc2cc1O,ATCC 2091,500 µg/mL
N#CCCN1C(=S)NC2=C(C(=O)CCC2)C1c1ccc(F)cc1,Robin Berkho (AUCC-1720),>40 µg/mL
CCOC(=O)c1sc(SC)cc1-c1ccc(Br)cc1,SKF,>100 µg/mL
Nc1ccc(CC(c2cccs2)n2ccnc2)cc1,-,300 µM
O=CN1C(=S)NC2=C(C(=O)CCC2)C1c1ccc(F)cc1,Robin Berkho (AUCC-1720),>40 µg/mL
O=C(N=Nc1c(O)[nH]c2cccc(Cl)c12)Nc1ccc(Cl)cc1,-,>1.56 µg/mL
CN(C)CCCCNC(=O)c1cc(NC(=O)c2cc(NC(=O)c3cc(NC(=O)c4nsc(N5CCNCC5)c4Cl)cn3C)cn2C)cn1C,38247,>32 µg/mL
C[C@H]1[C@H](O)[C@@H](C)/C=C/C=C/C=C/C=C/C=C/C=C/C=C/[C@H](O[C@@H]2O[C@H](C)[C@@H](O)[C@H](N)[C@@H]2O)C[C@@H]2O[C@](O)(C[C@@H](O)C[C@@H](O)CC[C@H](O)[C@@H](O)C[C@@H](O)CC(=O)O[C@H]1C)C[C@H](O)[C@H]2C(=O)O,5 isolates,0.63–1.25 µg/mL
Cn1ccc(C(Cc2ccc(N)cc2)n2ccnc2)c1,-,>300 µM
CCOC(=O)c1sc(SC)c(C#N)c1O,SKF,>100 µg/mL
COc1cc(O)c2c(c1)C(=O)c1c(cc3c(c1O)-c1c(cc(C)c(C(=O)NC(CO)C(=O)O)c1O)[C@H](OC1OC(C)C(O)C(OC4OCC(O)C(O)C4O)C1O)C3O)C2=O,SC14061 (azole-resistant),4 µg/mL
Clc1ccc(CC(c2ccc(Cl)s2)n2ccnc2)cc1,-,37.5 µM
Cc1cccc(/C=N\N(C)Cc2cccc3ccccc23)c1,-,>64 µg/mL
COC(=O)/C=C/C(=O)NCC(NC(=O)[C@H](C)N)C(=O)O,-,3.12 µg/mL
Nc1ccc(CC(c2ccc(Cl)s2)n2ccnc2)cc1,-,9.4 µM
C[C@@H]1Oc2ccccc2/C(=N/OCc2ccc(Cl)cc2)[C@H]1n1cncn1,ATCC 10231,8 µg/mL
CN(Cc1cccc2ccccc12)/N=C\c1ccc(C(C)(C)C)cc1,-,>64 µg/mL

For reference, 8 entries again:

compound | strain | result
C[C@@H]1Oc2cc(Cl)ccc2/C(=N/OCc2ccc(Cl)cc2)[C@H]1n1ccnc1 | ATCC 10231 | 0.5 µg/mL
O=C1C(Sc2ccc(F)cc2)=C(Sc2ccc(F)cc2)C(=O)c2ncccc21 | ATCC 10231 | 50 µg/mL
COC(=O)/C=C/C(=O)NCC(NC(=O)[C@@H](N)CCSC)C(=O)O | - | 0.78 µg/mL
O=C1CCCC2=C1C(c1ccc(F)cc1)N1C(c3ccccc3)=CSC1=N2 | Robin Berkho (AUCC-1720) | >40 µg/mL
O=C1C(Sc2cccc(F)c2)=C(Sc2cccc(F)c2)C(=O)c2ncccc21 | ATCC 10231 | 12.5 µg/mL
CCOC(=O)c1sc2cc(-c3cc(F)c(Cl)cc3Cl)oc(=O)c2c1N | SKF | >100 µg/mL
Cc1ccc(SC2=C(Sc3ccc(C)c(C)c3)C(=O)c3ncccc3C2=O)cc1C | ATCC 10231 | 12.5 µg/mL
O=CN1C(=S)NC2=C(C(=O)CCC2)C1c1ccc(F)cc1 | Robin Berkho (AUCC-1720) | >40 µg/mL